# “And” between values parts separate entries of the source, which are not always exact repeats. Identical values can stand only once.
# Biological target: adenovirus proteinase (AVP) (Human adenovirus C serotype 2, UniProt P03252)
# Type: biochemical
row,SMILES,Max
1,CC(C)C[C@H](NC(=O)[C@H](CO)NC(=O)[C@@H](N)CCC(N)=O)C(=O)N[C@@H](CCCCN)C(=O)N[C@@H](CCCNC(=N)N)C(=O)N[C@@H](CCCNC(=N)N)C(=O)N[C@@H](CCCNC(=N)N)C(=O)N[C@@H](CS)C(=O)N[C@@H](Cc1ccccc1)C(=O)O,13 ± 0.08
2,CC(C)C[C@H](NC(=O)[C@@H](N)CO)C(=O)N[C@@H](CCCCN)C(=O)N[C@@H](CCCNC(=N)N)C(=O)N[C@@H](CCCNC(=N)N)C(=O)N[C@@H](CCCNC(=N)N)C(=O)N[C@@H](CS)C(=O)N[C@@H](Cc1ccccc1)C(=O)O,22 ± 4.7 and 14 ± 0.5
3,CC(C)C[C@H](NC(=O)[C@H](CO)NC(=O)[C@H](CCC(N)=O)NC(=O)[C@@H](N)C(C)C)C(=O)N[C@@H](CCCCN)C(=O)N[C@@H](CCCNC(=N)N)C(=O)N[C@@H](CCCNC(=N)N)C(=O)N[C@@H](CCCNC(=N)N)C(=O)N[C@@H](CS)C(=O)N[C@@H](Cc1ccccc1)C(=O)O,23 ± 2.15
4,N=C(N)NCCC[C@H](NC(=O)[C@H](CCCNC(=N)N)NC(=O)[C@H](CCCNC(=N)N)NC(=O)[C@@H](N)CCCCN)C(=O)N[C@@H](CS)C(=O)N[C@@H](Cc1ccccc1)C(=O)O [KRRRCF],7.7 ± 0.5
5,N=C(N)NCCC[C@H](NC(=O)[C@H](CCCNC(=N)N)NC(=O)[C@@H](N)CCCNC(=N)N)C(=O)N[C@@H](CS)C(=O)N[C@@H](Cc1ccccc1)C(=O)O [RRRCF],1.7 ± 0.12

# — patent US10065989B2, “Molecular sleds and uses thereof” (The Broad Institute, Inc., priority 2012, dated 2018)
